Results from publication PMC9304929 (2022).

Target: SARS-CoV-2 spike receptor-binding domain (RBD), recombinant (SARS-CoV-2, UniProt P0DTC2)
Experiment: ELISA

| Binder | Kd |
| --- | --- |
| recombinant monomeric C-reactive protein, wild type (natural protein, citraconylated (residues not stated)) QTDMSRKAFVFPKESDTSYVSLKAPLTKPLKAFTVCLHFYTELSSTRGYSIFSYATKRQDNEILIFWSKDIGYSFTVGGSEILFEVPEVTVAPVHICTSWESASGIVEFWVDGKPRVRKSLKKGYTVGAEASIILGQEQDSFGGNFEGSQSLVGDIGNVNMWDFVLSPDEINTIYLGGPFSPNVLNWRALKYEVQGEVFTKPQLWP | 24.4 nM |
| urea-denatured monomeric C-reactive protein (natural protein) QTDMSRKAFVFPKESDTSYVSLKAPLTKPLKAFTVCLHFYTELSSTRGYSIFSYATKRQDNEILIFWSKDIGYSFTVGGSEILFEVPEVTVAPVHICTSWESASGIVEFWVDGKPRVRKSLKKGYTVGAEASIILGQEQDSFGGNFEGSQSLVGDIGNVNMWDFVLSPDEINTIYLGGPFSPNVLNWRALKYEVQGEVFTKPQLWP | 44.9 nM |
